Target: neuraminidase of H5N1 influenza virus A/Hanoi/30408/2005 (clone 7), oseltamivir sensitive strain (Influenza A virus, UniProt Q3C1C4)
Test: Neuraminidase inhibitory activity test, oseltamivir sensitive strain

SMILES: CC(=O)N[C@H]1[C@H]([C@H](O)[C@H](O)CO)OC(C(=O)O)=C[C@@H]1N=C(N)N [Zanamivir, reference compound]
- IC50: 0.96 nM

Reference: patent US20140018418A1 (priority 2007, published 2014)
